Data taken from publication PMC10852988.

Experiments:
Assay in all cases: SPR
Settings in all cases: domain or fragment
CB6 = target: CB6
CR3022 = target: CR3022
P2B-2F6 = target: P2B-2F6
S309 = target: S309

Question: Which Kd (CB6) does the source give for “RBD 1 (synthetic homogeneous RBD with sialylated biantennary N-glycans at N331 and N343, linker GGG and Tpep) (from UniProt P0DTC2 319-537)” here?
Answer: 66.5 nM

Question: Which Kd (CR3022) does the source give for “RBD 2 (synthetic homogeneous RBD with asialo biantennary N-glycans at N331 and N343, linker GGG and Tpep) (from UniProt P0DTC2 319-537)” here?
Answer: 27.9 nM

Question: And the Kd (CB6)?
Answer: 45.9 nM

Question: “RBD 4 (synthetic homogeneous RBD with asialo biantennary N-glycans at N331 and N343, without Tpep) (from UniProt P0DTC2 319-537)” was tested. Which Kd (P2B-2F6) did it give?
Answer: 72.7 nM

Question: For “nonglycosylated RBD 6 (RBD 319–537 with Met at the N-terminus) (from UniProt P0DTC2 319-537)”, which Kd (S309) is on record?
Answer: 3.57 nM
